Compound potency records, mixed from different reports. Data source: NIAID ChemDB in PubChem.

Common to all: tests in culture; agent: HIV-1; read-out: fold resistance

Blank or dashed fields: not listed here. Fold resistance has wild type as its base. Neighbouring rows are from separate reports.

SMILES	strain or isolate	mutations	cells	read by	result
CCN1c2ncc(CCOc3ccc(C(=O)Nc4cccn(CC(=O)O)c4=O)cc3C)cc2C(=O)N(C)c2cccnc21		RT-K103N Y181C	C8166	p24	1
COC(=O)[C@H](C)NP(=O)(OC[C@@H]1C=C[C@H](n2cc(C)c(=O)[nH]c2=O)O1)Oc1ccccc1Br	A17	RT-Y181C	PBMC	p24	21
CC(C)=CCOc1cc(NC(=S)c2ccoc2C)ccc1Cl	NL4-3	RT-A98G	CEM + CEM-SS	p24	3.33
Nc1nc(=O)n([C@H]2C=C[C@@H](CO)O2)cc1F	XM-ABC-resistant	RT-K65R L74V M184V Y115F	PBMC	p24	3.6
COC(=O)[C@H](C)NP(=O)(OC[C@@H]1C=C[C@H](n2cc(C)c(=O)[nH]c2=O)O1)Oc1ccc(OC)cc1	RTMDR	RT M41L L74V T215Y V106N	PBMC	p24	253
CCc1nnc(SCC(=O)Nc2ccc(C)cc2Br)n1-c1ccc(C)cc1	NL4-3	RT-K103N Y181C	HeLa + HeLa-JC53	luciferase	25000
CCOCn1c(Sc2ccccc2)c(CC)c(=O)[nH]c1=O	IIIB (TIBO 82150) (RT-L100I)	RT-L100I	CEM	syncytia	5.5
CCN1c2ncc(CCOc3ccc(Nc4ccc(C(=O)O)cc4)cc3C)cc2C(=O)N(C)c2cccnc21		RT-K103N Y181C	C8166	p24	>1
Cc1ccc(C2CC2)c(-c2ccc3c(c2)CCCO3)c1[C@H](OC(C)(C)C)C(=O)O	NL4-3	PI-resistant ARP-11807 (L33F/I47A/L63P/A71V/V82A)	MT-4	luminescence	1
CCN1c2ncc(CCOc3ccc(C(=O)NNC)cc3C)cc2C(=O)N(C)c2cccnc21		RT-K103N Y181C	C8166	p24	1
CC(C)c1c(Sc2ccccc2)n(COCc2ccccc2)c(=S)[nH]c1=O	IIIB	RT-E138K	CEM	syncytia	12.5
Cc1c(OCC2CCC2)c2cc(F)ccc2[nH]c1=O	NNRTI-resistant (RT K103N V108I)	RT-K103N V108I	HeLa + HeLa-MAGI	β-galactosidase	>3.28
CCN1c2ncc(CCOc3ccc(-c4ccc(CC(=O)O)cc4)cc3)cc2C(=O)N(C)c2cccnc21		RT-K103N Y181C	C8166	p24	>1
CCOCn1c(Cc2ccccc2)c(C(C)C)c(=O)[nH]c1=O	IIIB	RT-Y181I	CEM	syncytia	13500
COC(=O)[C@H](C)NP(=O)(OC[C@@H]1C=C[C@H](n2cc(C)c(=O)[nH]c2=O)O1)Oc1cc(Cl)ccc1Cl	RTMDR	RT M41L L74V T215Y V106N	PBMC	p24	22
Nc1nc(NC2CC2)c2ncn([C@H]3C=C[C@@H](CO)C3)c2n1	XM-M184V	RT-M184V	PBMC	p24	1.6
Cc1ccc(-n2c(C)nnc2SCC(=O)Nc2ccccc2I)cc1	NL4-3	RT-K103N Y181C	HeLa + HeLa-JC53	luciferase	440
C[C@@H]1CCO[C@H]2Cn3cc(C(=O)NCc4ccc(F)cc4F)c(=O)c(O)c3C(=O)N12		V72I/L74F/V75I	TZM-bl	luciferase / luminescence	0.5
CC(C)[C@H](NC(=O)OCc1ccccn1)C(=O)N[C@@H](Cc1ccccc1)[C@@H](O)C[C@H](Cc1ccccc1)NC(=O)OCc1cccnc1	NL4-3	PR-L10R M46I V82T	MT-4	p24	1.875
CCN1c2ncc(CCOc3ccc(C(=O)NN)cc3C)cc2C(=O)N(C)c2cccnc21		RT-K103N Y181C	C8166	p24	1
O=C1Nc2ccc(Cl)cc2[C@@](C#CC2CC2)(C(F)(F)F)N1		RT-Y181C			<6.32
CCc1c(Sc2cc(C)cc(C)c2)n(COCCO)c(=O)[nH]c1=O	IIIB	RT-Y188H	CEM	syncytia	≥3330
CCN1c2ncc(CCOc3ccc(-c4ccc(CC(=O)O)c(F)c4)cc3C)cc2C(=O)N(C)c2cccnc21		RT-K103N Y181C	C8166	p24	1
Cc1ccc(C2CC2)c(-c2ccc3c(c2C)CCCO3)c1[C@H](OC(C)(C)C)C(=O)O	NL4-3	NRTI/NNRTI resistant NLAY351717	MT-4	luminescence	1
COc1ccnc2[nH]cc(C(=O)C(=O)N3CCN(C(=O)c4ccccc4)C[C@H]3C)c12	LAI(GP120-M434I) Recombinant	GP120-M434I	MT-2	RT activity	4.25
CCN1c2ncc(CCOc3ccc(S(=O)(=O)NCC(=O)O)cc3C)cc2C(=O)N(C)c2cccnc21		RT-K103N Y181C	C8166	p24	1
CC(C)=CCOc1cc(NC(=S)c2ccsc2C)ccc1Cl	UC38-RS (RT-Y181C)	RT-Y181C	CEM + CEM-SS	cytopathic effect / XTT	25
CSc1ccccc1NC(=O)CSc1nnc(C)n1-c1ccc(C)cc1	NL4-3	RT-K103N Y181C	HeLa + HeLa-JC53	luciferase	200
CCN1c2ncc(CCOc3ccc(S(=O)(=O)Nc4ccc(C(=O)O)cc4)cc3C)cc2C(=O)N(C)c2cccnc21		RT-K103N Y181C	C8166	p24	1
Cc1cc(C)cc(Cc2c(C(C)C)c(=O)[nH]c(=O)n2COCCO)c1	IIIB TIBO R82913-resistant (RT K103N)	RT-K103N	CEM	syncytia	≥58.8
Cc1nnc(SCC(=O)Nc2ccc(S(N)(=O)=O)cc2Cl)n1-c1cccc2ccccc12	NL4-3	RT-Y188L	HeLa + HeLa-JC53	luciferase	380
CC(C)=CCOc1cc(NC(=S)c2ccoc2C)ccc1Cl	Calanolide A-resistant (RT T139I)	RT-T139I	CEM + CEM-SS	cytopathic effect / XTT	4
COc1ccc(-n2c(C)nnc2SCC(=O)Nc2ccc(S(N)(=O)=O)cc2Cl)c2ccccc12	NL4-3	RT-Y188L	HeLa + HeLa-JC53	luciferase	157
CCC(=O)c1ccc(F)c([C@@H]2C[C@@H]2NC(=O)Nc2ccc(C#N)cn2)c1O	LAI	NNRTI-resistant (RT N348I)	TZM-bl	β-galactosidase / luminescence	1.5
Cc1ccc2c(C)cc(C)c(-n3c(SCC(=O)Nc4ccc(S(N)(=O)=O)cc4Cl)nnc3C(F)(F)F)c2n1	NL4-3	RT-Y188L	HeLa + HeLa-JC53	luciferase	4
O=C1Nc2ccc(Cl)cc2[C@@](/C=C/C2CC2)(C(F)(F)F)N1		RT-K101E			<6
Cc1ccc(-n2c(C)nnc2SCC(=O)Nc2ccc(OC(F)(F)F)cc2Br)cc1	NL4-3	RT-K103N Y181C	HeLa + HeLa-JC53	luciferase	>173
CCOCn1c(Sc2cc(C)cc(C)c2)c(CC)c(=O)[nH]c1=O	IIIB	RT-Y181C	CEM	syncytia	75
Cc1ccc2c(C)cc(C)c(-n3c(C)nnc3SCC(=O)Nc3ccc(S(N)(=O)=O)cc3Cl)c2n1	NL4-3	RT-Y188L	HeLa + HeLa-JC53	luciferase	16
C=C(C)[C@@H]1CC[C@]2(C(=O)NCCCCCCCC(=O)N[C@@H](CC(C)C)[C@@H](O)CC(=O)O)CC[C@]3(C)[C@H](CC[C@@H]4[C@@]5(C)CC[C@H](O)C(C)(C)[C@@H]5CC[C@]43C)[C@@H]12	LAI	GP41-I69V	HeLa P4 + HeLa	syncytia	~1
CCN1c2ncc(CCOc3ccc(NC(=O)CCC(=O)O)cc3C)cc2C(=O)N(C)c2cccnc21		RT-K103N Y181C	C8166	p24	>1

For reference, 2 entries again:

SMILES,strain or isolate,mutations,cells,read by,result
COc1ccnc2[nH]cc(C(=O)C(=O)N3CCN(C(=O)c4ccccc4)C[C@H]3C)c12,LAI(GP120-M434I) Recombinant,GP120-M434I,MT-2,RT activity,4.25
Nc1nc(NC2CC2)c2ncn([C@H]3C=C[C@@H](CO)C3)c2n1,XM-M184V,RT-M184V,PBMC,p24,1.6